# HIV-1 5' UTR: DMS reactivities by position

RNA: 5' end of the HIV-1 NL4-3 genome, made in vitro. Positions 1-437 read:
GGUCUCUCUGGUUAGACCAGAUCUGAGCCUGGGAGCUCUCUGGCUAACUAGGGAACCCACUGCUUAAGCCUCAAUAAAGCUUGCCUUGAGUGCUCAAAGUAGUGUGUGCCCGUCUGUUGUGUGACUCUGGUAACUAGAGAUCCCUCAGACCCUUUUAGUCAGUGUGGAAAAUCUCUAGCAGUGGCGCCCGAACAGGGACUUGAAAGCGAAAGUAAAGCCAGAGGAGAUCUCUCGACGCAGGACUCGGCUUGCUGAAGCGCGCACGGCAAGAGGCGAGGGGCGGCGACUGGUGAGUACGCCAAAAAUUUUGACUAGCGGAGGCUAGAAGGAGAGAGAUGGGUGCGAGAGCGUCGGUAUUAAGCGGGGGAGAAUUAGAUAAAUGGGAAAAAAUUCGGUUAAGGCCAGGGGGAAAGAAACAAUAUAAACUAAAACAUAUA

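Randomly mutated transcripts starting with one, two or three G (1G, 2G, 3G), capped or uncapped, were folded for 30 min at 37 °C. Monomer and dimer bands were cut from native gels after folding in high salt (300 mM KCl, 5 mM MgCl2) or low salt (40 mM KCl, 0.1 mM MgCl2). Each band was probed in the gel with DMS (170 mM, 15 min, 37 °C), with ethanol as control, and sequenced.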

Values are winsor-normalised DMS reactivities of A and C; higher means more reactive, usually unpaired.
One numbering serves 1G, 2G and 3G.
A position is written with its base.

With A19 (domain TAR) the assay gave 2G uncapped low-salt dimer 0.04; 1G capped high-salt monomer 0.04; 2G uncapped high-salt dimer 0.03. A21 (domain TAR) gave 2G uncapped low-salt dimer 0.57; 1G capped high-salt monomer 0.57; 2G uncapped high-salt dimer 0.54. With C23 (domain TAR) the assay gave 2G uncapped low-salt dimer 1.19; 1G capped high-salt monomer 1.26; 2G uncapped high-salt dimer 1.12. For A26 (domain TAR) the result was 2G uncapped low-salt dimer 0.15; 1G capped high-salt monomer 0.14; 2G uncapped high-salt dimer 0.13. C28 (domain TAR) gave 2G uncapped low-salt dimer 0.05; 1G capped high-salt monomer 0.04; 2G uncapped high-salt dimer 0.03. C29 (domain TAR) read 2G uncapped low-salt dimer 0.10; 1G capped high-salt monomer 0.11; 2G uncapped high-salt dimer 0.08. For A34 (domain TAR) the result was 2G uncapped low-salt dimer 1.00; 1G capped high-salt monomer 1.08; 2G uncapped high-salt dimer 1.02.

For C36 (domain TAR) the result was 2G uncapped low-salt dimer 0.05; 1G capped high-salt monomer 0.04; 2G uncapped high-salt dimer 0.03. C38 (domain TAR) read 2G uncapped low-salt dimer 0.04; 1G capped high-salt monomer 0.04; 2G uncapped high-salt dimer 0.03. With C40 (domain TAR) the assay gave 2G uncapped low-salt dimer 0.04; 1G capped high-salt monomer 0.04; 2G uncapped high-salt dimer 0.03. For C44 (domain TAR) the result was 2G uncapped low-salt dimer 0.04; 1G capped high-salt monomer 0.04; 2G uncapped high-salt dimer 0.03. With A46 (domain TAR) the assay gave 2G uncapped low-salt dimer 0.07; 1G capped high-salt monomer 0.05; 2G uncapped high-salt dimer 0.05. For A47 (domain TAR) the result was 2G uncapped low-salt dimer 0.18; 1G capped high-salt monomer 0.17; 2G uncapped high-salt dimer 0.13. C48 (domain TAR) read 2G uncapped low-salt dimer 0.09; 1G capped high-salt monomer 0.07; 2G uncapped high-salt dimer 0.04.

A50 (domain TAR) read 2G uncapped low-salt dimer 0.20; 1G capped high-salt monomer 0.19; 2G uncapped high-salt dimer 0.14. A54 (domain TAR) read 2G uncapped low-salt dimer 0.17; 1G capped high-salt monomer 0.18; 2G uncapped high-salt dimer 0.18. For A55 (domain TAR) the result was 2G uncapped low-salt dimer 0.25; 1G capped high-salt monomer 0.45; 2G uncapped high-salt dimer 0.26. With C56 (domain TAR) the assay gave 2G uncapped low-salt dimer 0.04; 1G capped high-salt monomer 0.19; 2G uncapped high-salt dimer 0.03. For C57 (domain TAR) the result was 2G uncapped low-salt dimer 0.05; 1G capped high-salt monomer 0.68; 2G uncapped high-salt dimer 0.03. With C58 (domain PolyA) the assay gave 2G uncapped low-salt dimer 0.60; 1G capped high-salt monomer 0.21; 2G uncapped high-salt dimer 0.54. A59 (domain PolyA) read 2G uncapped low-salt dimer 0.36; 1G capped high-salt monomer 0.42; 2G uncapped high-salt dimer 0.32.

With C60 (domain PolyA) the assay gave 2G uncapped low-salt dimer 0.19; 1G capped high-salt monomer 0.22; 2G uncapped high-salt dimer 0.17. C63 (domain PolyA) read 2G uncapped low-salt dimer 0.11; 1G capped high-salt monomer 0.10; 2G uncapped high-salt dimer 0.09. For A66 (domain PolyA) the result was 2G uncapped low-salt dimer 1.11; 1G capped high-salt monomer 1.00; 2G uncapped high-salt dimer 1.15. A67 (domain PolyA) gave 2G uncapped low-salt dimer 0.57; 1G capped high-salt monomer 0.64; 2G uncapped high-salt dimer 0.58. With C69 (domain PolyA) the assay gave 2G uncapped low-salt dimer 0.04; 1G capped high-salt monomer 0.04; 2G uncapped high-salt dimer 0.03. For C70 (domain PolyA) the result was 2G uncapped low-salt dimer 0.04; 1G capped high-salt monomer 0.04; 2G uncapped high-salt dimer 0.03. With C72 (domain PolyA) the assay gave 2G uncapped low-salt dimer 0.11; 1G capped high-salt monomer 0.12; 2G uncapped high-salt dimer 0.09.

For A73 (domain PolyA) the result was 2G uncapped low-salt dimer 0.04; 1G capped high-salt monomer 0.04; 2G uncapped high-salt dimer 0.04. For A74 (domain PolyA) the result was 2G uncapped low-salt dimer 0.65; 1G capped high-salt monomer 0.75; 2G uncapped high-salt dimer 0.53. For A76 (domain PolyA) the result was 2G uncapped low-salt dimer 0.25; 1G capped high-salt monomer 0.27; 2G uncapped high-salt dimer 0.26. A77 (domain PolyA) read 2G uncapped low-salt dimer 0.74; 1G capped high-salt monomer 0.79; 2G uncapped high-salt dimer 0.67. A78 (domain PolyA) read 2G uncapped low-salt dimer 0.67; 1G capped high-salt monomer 0.74; 2G uncapped high-salt dimer 0.66. C80 (domain PolyA) read 2G uncapped low-salt dimer 0.40; 1G capped high-salt monomer 0.39; 2G uncapped high-salt dimer 0.35. With C84 (domain PolyA) the assay gave 2G uncapped low-salt dimer 0.71; 1G capped high-salt monomer 0.58; 2G uncapped high-salt dimer 0.64.

C85 (domain PolyA) read 2G uncapped low-salt dimer 0.42; 1G capped high-salt monomer 0.34; 2G uncapped high-salt dimer 0.38. For A89 (domain PolyA) the result was 2G uncapped low-salt dimer 0.34; 1G capped high-salt monomer 0.53; 2G uncapped high-salt dimer 0.32. C93 (domain PolyA) gave 2G uncapped low-salt dimer 0.04; 1G capped high-salt monomer 0.04; 2G uncapped high-salt dimer 0.03. With C95 (domain PolyA) the assay gave 2G uncapped low-salt dimer 0.57; 1G capped high-salt monomer 0.55; 2G uncapped high-salt dimer 0.51. A96 (domain PolyA) read 2G uncapped low-salt dimer 0.22; 1G capped high-salt monomer 0.26; 2G uncapped high-salt dimer 0.24.

The measurements come from Ye et al. 2022 (doi:10.1038/s41594-022-00746-2).